Measurements reported in patent US20230124013A1, “USE OF CONJUGATES COMPRISING TUMOUR-SELECTIVE LIGANDS AND GROUPS CAPABLE OF RELEASING CARBON MONOXIDE (CO), FOR EXERTING IMMUNOMODULATORY EFFECTS IN CANCER TREATMENT” (Instituto de Medicina Molecular João Lobo Antunes, priority 2020, published 2023).

Tested on: bone marrow-derived macrophages
Experiment: Bone marrow-derived macrophage (BMDM) differentiation culture
Assay type: cell-based, C57BL/c mice
Details: BMDM in vitro, day 2 and 6 of differentiation

## rHSA-CORM: artificial albumin metalloprotein: recombinant human serum albumin (Recombumin) metalated with CORM-3, carrying Ru(CO)2 groups
  apoptosis (Annexin V and Viability dye): reduction in apoptosis
